In patent US12012411B2, “Viral replication inhibitors” (Katholieke Universiteit Leuven, priority 2011, dated 2024):

Key:
DENV-2 NGC [1] = assay: Antiviral activity against DENV-2 NGC in Vero-B cells (viral RNA load by RT-qPCR); assay type: cell-based, Dengue virus; conditions: DENV-2 in Vero-B cells (Table 3); ratio CC50 / EC50
DENV-2 NGC [2] = assay: Antiviral activity against DENV-2 NGC in A549 cells (viral RNA load by RT-qPCR); assay type: cell-based, Dengue virus; conditions: DENV-2 in A549 cells (Table 6); ratio CC50 / EC50

| SMILES | SI (DENV-2 NGC [1]) | SI (DENV-2 NGC [2]) |
| --- | --- | --- |
| COc1cccc(NC(C(=O)c2c[nH]c3ccccc23)c2cc(C)n(C)n2)c1 (stereo not drawn) [CPD-267] | 61 |  |
| COc1cccc(NC(C(=O)c2c[nH]c3c(C)cccc23)c2ccc(OC)nc2)c1 (stereo not drawn) [CPD-332] | 527 |  |
| COc1cccc(NC(C(=O)c2c[nH]c3ccccc23)c2cn3cc(C)ccc3n2)c1 (stereo not drawn) [CPD-098] | >11 |  |
| COc1cccc(NC(C(=O)c2c[nH]c3ccccc23)c2cn3c(F)cccc3n2)c1 (stereo not drawn) [CPD-109] | 159 |  |
| COc1ccc2c(C(=O)C(Nc3ccnc(OC)c3)c3ccccc3)c[nH]c2c1 (stereo not drawn) [CPD-076] | 31 |  |
| COc1cc(NC(C(=O)c2c[nH]c3ccccc23)c2ccc(C#N)cc2)cc(OC)c1 (stereo not drawn) [CPD-233] | 817 |  |
| O=C(c1c[nH]c2ccccc12)C(NC1CCCC1)c1ccccc1 (stereo not drawn) [CPD-183] | 6 |  |
| CCc1cncc(NC(C(=O)c2c[nH]c3ccccc23)c2ccccc2)c1 (stereo not drawn) [CPD-248] | 27 |  |
| COc1ccc(C(Nc2cncc(OC)n2)C(=O)c2c[nH]c3ccccc23)cn1 (stereo not drawn) [CPD-284] | 120 |  |
| COc1cccc(NC(C(=O)c2c[nH]c3ccc(S(C)(=O)=O)cc23)c2ccccc2)c1 (stereo not drawn) [CPD-229] | >48 |  |
| COc1cccc(NC(C(=O)c2cn(S(C)(=O)=O)c3ccc(F)cc23)c2ccccc2)c1 (stereo not drawn) [CPD-212] | >260 |  |
| COc1cncc(NC(C(=O)c2c[nH]c3ccccc23)c2ccccc2)n1 (stereo not drawn) [CPD-252] | 140 |  |
| COc1cccc(NC(C(=O)c2c[nH]c3cc(F)ccc23)c2ccc(OC)nc2)c1 (stereo not drawn) [CPD-213] | 256 |  |
| COc1cc(NC(C(=O)c2c[nH]c3c(C)cccc23)c2ccccc2)cc(OCCO)c1 (stereo not drawn) [CPD-331] | 736 |  |
| COc1cccc(NC(C(=O)c2c[nH]c3ccccc23)c2ccc(F)cc2)c1 (stereo not drawn) [CPD-149] | 554 |  |
| COc1cccc(NC(C(=O)c2nn(C)c3ccccc23)c2cnc(OC)cn2)c1 (stereo not drawn) [CPD-272] | >263 |  |
| COc1cccc(NC(C(=O)c2csc3c2CCN(C)C3)c2ccccc2)c1 (stereo not drawn) [CPD-202] | 12 |  |
| COc1cccc(NC(C(=O)c2c[nH]c3ccc(CN(C)C)cc23)c2ccccc2)c1 (stereo not drawn) [CPD-228] | 8 |  |
| O=C(c1c[nH]c2ccccc12)C(Nc1cncc(OC(F)F)c1)c1ccccc1 (stereo not drawn) [CPD-269] | 28 |  |
| COc1cncc(NC(C(=O)c2c[nH]c3ccccc23)c2ccc(C#N)cc2)c1 (stereo not drawn) [CPD-159] | 624 |  |
| COc1ccc(C(Nc2cccc(OC)c2)C(=O)c2c[nH]c3ccccc23)nc1 (stereo not drawn) [CPD-310] | 454 |  |

| SMILES | SI (DENV-2 NGC [1]) | SI (DENV-2 NGC [2]) |
| --- | --- | --- |
| COc1ccnc(NC(C(=O)c2c[nH]c3ccccc23)c2ccccc2)c1 (stereo not drawn) [CPD-066] | 15 |  |
| COc1cccc(NC(C(=O)c2c[nH]c3c(F)cccc23)c2ccc(OC)nc2)c1 (stereo not drawn) [CPD-155] | 191 |  |
| COc1cc(NC(C(=O)c2c[nH]c3ccccc23)c2cc3ccccn3n2)cc(OC)c1 (stereo not drawn) [CPD-293] | 50498 | >43103 |
| COc1cc(NC(C(=O)c2c[nH]c3ccccc23)c2ccc(OC)nc2)cc(OCCO)c1 (stereo not drawn) [CPD-291] | 872 |  |
| COc1cccc(NC(C(=O)c2c[nH]c3ccccc23)c2cncc(F)c2)c1 (stereo not drawn) [CPD-321] | 310 |  |
| O=C(c1c[nH]c2ccccc12)C(NC1CCOc2ccccc21)c1ccccc1 (stereo not drawn) [CPD-182] | 4 |  |
| COc1cc(NC(C(=O)c2c[nH]c3ccccc23)c2ccc(C)nc2)cc(OC)c1 (stereo not drawn) [CPD-346] | 9945 | 7559 |
| O=C(c1c[nH]c2ccccc12)C(NCc1ccco1)c1ccccc1 (stereo not drawn) [CPD-034] | >3 |  |
| COc1cc(CO)cc(NC(C(=O)c2c[nH]c3ccc(F)cc23)c2cccnc2)c1 (stereo not drawn) [CPD-334] | 1746 | 3536 |
| COc1cccc(NC(C(=O)c2cn(C)c3ccc(F)cc23)c2ccccc2)c1 (stereo not drawn) [CPD-137] | >2762 |  |
| COc1cccc(NC(C(=O)c2c[nH]c3cccc(C)c23)c2ccccc2)c1 (stereo not drawn) [CPD-251] | 195 |  |
| COc1cccc(NC(C(=O)c2cn(CCN(C)C)c3ccccc23)c2ccccc2)c1 (stereo not drawn) [CPD-114] | 48 |  |
| COc1cc(NC(C(=O)c2c[nH]c3ccc(CO)cc23)c2ccccc2)cc(OC)c1 (stereo not drawn) [CPD-351] | 605 |  |
| COc1cc(NC(C(=O)c2c[nH]c3ccccc23)c2ccccc2)cnc1N(C)C (stereo not drawn) [CPD-257] | 37 |  |
| COc1cccc(NC(C(=O)c2c[nH]c3cccc(Cl)c23)c2ccccc2)c1 (stereo not drawn) [CPD-053] | 774 |  |
| COc1cccc(NC(C(=O)c2c[nH]c3cccnc23)c2ccccc2)c1 (stereo not drawn) [CPD-195] | 5 |  |
| COc1cc(NC(C(=O)c2c[nH]c3ccccc23)c2ccc(C#N)cc2)ccn1 (stereo not drawn) [CPD-061] | 34 |  |
| COc1cncc(NC(C(=O)c2c[nH]c3ccccc23)c2ccc(OC)nc2)c1 (stereo not drawn) [CPD-158] | 746 |  |
| COc1cc(CO)cc(NC(C(=O)c2c[nH]c3ccccc23)c2ccc(F)cc2)c1 (stereo not drawn) [CPD-313] | 1464 |  |
| NC(=O)c1cccc(NC(C(=O)c2c[nH]c3ccccc23)c2ccccc2)c1 (stereo not drawn) [CPD-065] | 7 |  |
| COc1cccc(NC(C(=O)c2c[nH]c3c(F)cccc23)c2cccnc2)c1 (stereo not drawn) [CPD-153] | >454 |  |
